# Source: PubChem BioAssay AID624099 (ICCB-Longwood, 2012)
# Aim: 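Knock-downs relieving repression by E2 of an HPV18 LCR luciferase reporter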 (primary screen)
# Cell system: human C33A cervical carcinoma cells (HPV-negative) stably expressing BPV1 E2 and an HPV18 LCR luciferase reporter
# Knock-down reagent: siRNA pool against human genes, 40 nM
# Timing: 72 h
# Detection: 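HPV18 LCR reporter light per well, converted to plate-wise z-scores that exclude control wells, and averaged over triplicate plates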
# Direction: mean z-score and z-score: higher = stronger reporter signal, weaker E2 silencing
# Active means: 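Mean z ≥ 2 together with z ≥ 2 in two or more of the three replicates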
# Here is a random part of about 21,000 reagents. In the full data, 497 (2.4%) were called active. 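Higher z means weaker E2 silencing; only reporter increases were scored, and knock-downs that hurt cell survival may mask genuine repressor factors.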 Unmarked entries are inactive.
gene symbol,mean z-score,"z-score, replicate A","z-score, replicate B","z-score, replicate C"
LOC400692 (retired record),-0.79,-0.69,-1.04,-0.65
ANKRD36B (ankyrin repeat domain 36B),-0.9,-0.92,-0.55,-1.22
PSME3IP1 (proteasome activator subunit 3 interacting protein 1),-0.68,-0.27,-0.75,-1.03
LOC389447 (retired record),0.81,0.94,0.63,0.86
C1orf198 (chromosome 1 open reading frame 198),-0.04,-0.25,-0.09,0.23
"ALG10B (ALG10 alpha-1,2-glucosyltransferase B)",-0.81,-0.31,-0.91,-1.2
LOC389108 (retired record),1.85,2.46,1.6,1.49
PLAC9P1 (placenta associated 9 pseudogene 1),0.22,0.22,0.09,0.37
CD55 (CD55 molecule (Cromer blood group)),0.94,1,0.85,0.97
FDPSP3 (farnesyl diphosphate synthase pseudogene 3),-0.14,-0.44,0.01,0.01
MCRIP2 (MAPK regulated corepressor interacting protein 2),-0.41,-0.44,-0.31,-0.48
ARGLU1-DT (ARGLU1 divergent transcript),-0.95,-0.69,-0.98,-1.19
SLC25A33,1.05,0.98,1.09,1.09
"NUGGC (nuclear GTPase, germinal center associated)",1.8,2.35,1.74,1.3
LOC730118 (retired record),0.87,0.63,0.68,1.3
"TBC1D29P (TBC1 domain family member 29, pseudogene)",-0.09,-0.24,0.11,-0.15
MAGEA8 (MAGE family member A8),0.04,-0.07,0.05,0.16
FLJ46230 (retired record),-0.5,-0.67,-0.51,-0.33
SETMAR (SET and mariner transposase domain methyltransferase),-1.19,-1.17,-1.07,-1.33
DFFA (DNA fragmentation factor subunit alpha),0.77,0.75,0.77,0.79
SNX18 (sorting nexin 18),-0.16,-0.29,-0.14,-0.04
TTBK1 (tau tubulin kinase 1),0.9,1.2,0.7,0.81
LOC399975,-0.66,-0.92,-0.57,-0.47

Continued; the last 4 above are carried over.
gene symbol,mean z-score,"z-score, replicate A","z-score, replicate B","z-score, replicate C"
DFFA (DNA fragmentation factor subunit alpha),0.77,0.75,0.77,0.79
SNX18 (sorting nexin 18),-0.16,-0.29,-0.14,-0.04
TTBK1 (tau tubulin kinase 1),0.9,1.2,0.7,0.81
LOC399975,-0.66,-0.92,-0.57,-0.47
"ADH5 (alcohol dehydrogenase 5 (class III), chi polypeptide)",0.77,0.67,0.52,1.13
ANO5 (anoctamin 5),-0.3,-0.64,-0.04,-0.22
DENND1C (DENN domain containing 1C),-1.04,-1,-1.28,-0.83
TSSK6 (testis specific serine kinase 6),-1.27,-1.26,-1.32,-1.22
PEX26 (peroxisomal biogenesis factor 26),-0.19,0.06,-0.44,-0.19
ABHD8 (abhydrolase domain containing 8),1.13,1.28,1.21,0.91
TTLL1 (TTL family tubulin polyglutamylase complex subunit L1),-0.49,-0.61,-0.65,-0.22
LOC391426 (retired record),0.82,0.57,1.08,0.81
KIF5A (kinesin family member 5A),0.85,0.98,0.81,0.75
CIMIP6 (ciliary microtubule inner protein 6),2.35 (active),2.12,2.42,2.49
IL6 (interleukin 6),0.16,0.02,0.14,0.32
DYNLT3 (dynein light chain Tctex-type 3),1.03,1.25,0.89,0.94
MAB21L3 (mab-21 like 3),-0.57,-0.63,-0.71,-0.36
MPZL2 (myelin protein zero like 2),0.1,0.06,0.04,0.19
COA7 (cytochrome c oxidase assembly factor 7),0.39,0.26,0.59,0.32
DGKQ (diacylglycerol kinase theta),-1.14,-1.23,-1.14,-1.06
